# Earlier results in PMC7894237 (Inflammation Research, 2021).
# Where two headings read alike, the source gives them in different places.
# Columns and labels:
# [1] = system: patients with MERS infection; conditions: human, in vivo
# MERS-CoV [2] = system: MERS-CoV
# [3] = system: SARS-CoV1 replication in Vero cells
# [4] = system: SARS-CoV1 replication in Vero cells; remark: listed apart in the source
# MERS-CoV [5] = conditions: mouse, in vivo
Molecule,therapeutic effect [1],potency as inhibitor of MERS-CoV infection (MERS-CoV [2]),potency as inhibitor of SARS-CoV1 infection (SARS-CoV1),also measured
IFN α-2b: interferon subtype,inconclusive,,,
IFNβ-1a: interferon beta subtype,,more potent inhibitor,more potent inhibitor,
IFNβ-1b: interferon beta subtype,,more potent inhibitor,more potent inhibitor,
IFN α-2a: interferon subtype,inconclusive,,,
"IFN-β: type I interferon (protein, UniProt P01574 22-187, looked up) Interferon beta: MSYNLLGFLQRSSNFQCQKLLWQLNGRLEYCLKDRMNFDIPEEIKQLQQFQKEDAALTIYEMLQNIFAIFRQDSSSTGWNETIVENLLANVYHQINHLKTVLEEKLEKEDFTRGKLMSSLHLKRYYGRILHYLKAKEYSHCAWTIVRVEILRNFYFINRLTGYLRN",inconclusive,,,"effect on SARS-CoV1 replication [3]: inhibited synergistically; effect on SARS-CoV1 replication [4]: may act synergistically; sensitivity of SARS-CoV1 to the interferon [4]: moderately sensitive; therapeutic effect (MERS-CoV [5]): improved respiratory function, but did not markedly reduce virus replication or lung pathology severity"
